# Data as given in patent publication US20230181700A1 (GLIKNIK, published 2023).
# B1: GL-ACE2-IgG1, the reference (parental) ACE2-IgG1 fusion protein (Fc fusion)
# chain: not shown
# Biological target: SARS-CoV-2 S1 spike protein (Acrobiosystem, Cat No: SPN-CH52H8) (SARS-CoV-2)
binder,measurement,value
B1,EC50,0.216 µg/mL
